The test has as its target SARS-CoV-2 spike protein on stably transduced 293T cells (SARS-CoV-2). The experiment in a line: cell-based or functional assay.

Consider “Human ACE2, soluble, his tag (from UniProt Q9BYF1 18-740) (receptor)”, for which the spike shedding time course, intensity relative to binding at T5 was found to be 50%.
